Reference: article PMC7802229, “Alkaloid and benzopyran compounds of Melicope latifolia fruit exhibit anti-hepatitis C virus activities” (BMC Complementary Medicine and Therapies, 2021)

Test system: HCV JFH1a
Experiment: Antiviral activity assay (HCV infection of Huh7it-1 cells, titre by immunostaining)
Format: cell-based, hepatitis C virus (genotype 2a)
Conditions: selectivity index from CC50 and IC50; ratio CC50 / IC50
Description: Hepatocyte cells of Huh7it-1 [18] were cultivated in DMEM-Dulbeco’s Modiffied Eagle Medium (GIBCO Invitrogen). The medium was supplemented with 10% Fetal Bovine Serum (FBS, GIBCO-Invitrogen), 0.15 mg/ml kanamycin solution (SIGMA) and 1x Non-Essential Amino Acids (NEAA, GIBCO-Invitrogen). The cell culture was incubated in 5% CO2 at 37 °C. HCV JFH1a was propagated in Huh7it-1 suspended in 4 ml JFH1 suspension and 4 ml DMEM and was incubated at 37 °C in 5% CO2 for 4 h. The suspension was divided into eight flasks and the supernatant was harvested on the third day. The supernatant was concentrated and examined for its viral titration and stored at − 80 °C [10].
The hepatocyte cells of Huh7it-1 were seeded on a 48 well plate with a cell density of 5.4 × 10^4 and incubated for 24 h. […] The supernatant was removed and washed with medium and placed back into solutions containing the same concentrations of extract. The cultures were then incubated for 48 h and the supernatant was taken to examine the titer infection of the sample by immunostaining.
Viral titration was performed by serially diluting the culture supernatant in DMEM medium and inoculating onto Huh7it-1 cells. After incubation for 41 h, the cells were fixed by 3.7% formaldehyde and permeabilized with 0.5% triton X-100 for 10 min. First antibody (HCV infected serum patient) was used in 1% bovine serum albumin (BSA) /2%BlockIce/ phosphate buffer saline (PBS) with a 300x dilution then incubated for 60 min. Second antibody (HRP-Goat anti human) was used in 1%BSA/2%BlockIce/PBS with a 400x dilution (50 μl/well) and then incubated for 60 min at room temperature. To visualize the infectious foci, 3,3′-diaminobenzidine (DAB) staining (DAB Thermo Scientific, USA) was used for 15 min until a brown color was observed. SPSS probit was used to calculate inhibition concentration 50% (IC50) values.

Question: With `COc1cc(O)c(C(C)=O)c2c1C=CC(C)(C)O2` [Alloevodionol] as the compound, how does the SI read?
Answer: > 24.3

Question: How did the SI turn out when `COc1cc2oc(=O)ccc2c2c1C=CC(C)(C)O2` [Alloxanthoxyletin] was run?
Answer: 4.3

Question: How did the SI turn out when `Cn1c(=O)c2c(c3ccccc31)OC(C)(C)C=C2` [N-methylflindersine] was run?
Answer: 25.5

Question: With `COc1c2c(c3c(c1C(C)=O)OC(C)(C)C=C3)OC(C)(C)C=C2` [O-methyloktadrenolon] as the compound, how does the SI read?
Answer: 5.8
